A mixed list of measured activities; the numbers were collected in NIAID ChemDB.

All rows: whole-cell or culture tests; organism: Mycobacterium tuberculosis

ECn is the concentration giving n% inhibition of infection, replication or growth. Lines come from different laboratories, so protocols vary. An empty or dashed field is not shown. MIC50, MIC90 and the like: level of inhibition, or share of isolates inhibited. MIC bound: limit read from a one-dose screen. Two numbers with a dash give a range or band. Percent inhibition refers to the dose given; in toxicity tests it is the harm to the cells.

compound,measure,read by,conditions,strain,changes,tested at,value
NC(=O)n1ncc(Cl)c(Cl)c1=O,inhibition,BACTEC,,H37Rv,,12.5 µg/mL,-9%
Cc1cccc(N=Nc2c(O)c3c(ccc4ccccc43)oc2=O)c1C,inhibition,resazurin,,H37Rv,,6.25 µg/mL,64%
O=C([C@@H](O)CO)N1CC=C(c2c(F)cc(N3C[C@H](COc4ccon4)OC3=O)cc2F)CC1,MIC,,,AZD5847-resistant 4.6,T460C Cys154Arg,,16 µg/mL
c1ccc(-c2csc(Nc3ccc4ccccc4c3)n2)nc1,MIC,visual reading,,H37Rv,,,2.9 µM
O=C1c2ccccc2C(O)(C(=O)O)C1(O)CC=C(Cl)Cl,MIC,BACTEC,,H37Rv,,,≥12.5 µg/mL
CC(=O)NC[C@H]1CN(c2ccc(N3CCOCC3)c(F)c2)C(=O)O1,MIC,,,10S,,,0.25 µg/mL
Cc1ccc2oc(=O)n(-c3ccc(F)cc3)c(=S)c2c1,MIC,,14 d,My 331/88,,,4 µM
COC(=O)[C@]1(C)CCC[C@]2(C)c3ccc(C(C)C)cc3C(=O)C[C@@H]12,inhibition,BACTEC,,H37Rv,,12.5 µg/mL,26%
O=C(Nc1nc(-c2ccccn2)cs1)NC1CCCC1,MIC,visual reading,,H37Rv,,,1.6 µM
O=c1[nH]c2c(Cl)cccc2c(O)c1N=Nc1cccc([N+](=O)[O-])c1,MIC,resazurin,,H37Rv,,,>6.25 µg/mL
CCOC(=O)c1ccc2c(c1)nc(-c1ccccc1)n2CCN1CCCOC1,EC90,resazurin / fluorescence,,H37Rv,,,>100 µM
O=C(N/N=C/Cc1ccccc1)c1ccc(F)cc1,EC50,,,H37Rv,,,>6.25 µg/mL
Cc1cccc2c(O)c(N=Nc3cccc(Cl)c3)c(=O)[nH]c12,inhibition,resazurin,,H37Rv,,6.25 µg/mL,39%
OCCN(CCO)Cc1nc2cc(Cl)c(Cl)cc2[nH]1,MIC bound,resazurin,,H37Rv,,,>6.25 µg/mL
CN/N=C/c1cc(C(F)(F)F)nc2c(C(F)(F)F)cccc12,MIC,,,,,,>128 µM
COc1ccc2oc(=O)n(-c3ccc(Br)cc3)c(=S)c2c1,MIC,,14 d,My 331/88,,,32 µM
CC(=O)Oc1c(OC(C)=O)c(-c2ccc(O)c(O)c2)c(O)c(O)c1-c1ccc(O)cc1,MIC,BACTEC,,H37Rv,,,≥12.5 µg/mL
NCC[C@H](O)C(=O)N[C@@H]1C[C@H](N)[C@@H](O[C@H]2O[C@H](CN)[C@@H](O)[C@H](O)[C@H]2O)[C@H](O)[C@H]1O[C@H]1O[C@H](CO)[C@@H](O)[C@H](N)[C@H]1O,MIC,,,TN2508 (001/16),,,>256 µg/mL
C[C@H]1COc2c(N3CCN(C)CC3)c(F)cc3c(=O)c(C(=O)O)cn1c23,MBC90,,,Drug-resistant,,,1 µg/mL
FC(F)(F)c1ccccc1Nc1nc(C23CC4CC(CC(C4)C2)C3)cs1,MIC,visual reading,,H37Rv,,,>20 µM
Cn1c(=O)c(N=Nc2ccc(Cl)cc2)c(O)c2ccccc21,MIC,resazurin,,H37Rv,,,>6.25 µg/mL
Cc1ccccc1N=Nc1c(O)c2cc(-c3ccccc3)ccc2oc1=O,inhibition,resazurin,,H37Rv,,6.25 µg/mL,17%
COc1cccc2c1C(=O)c1c(O)c3c(c(O)c1C2=O)C[C@@](O)(/C(C)=N/NC(=O)c1cccc([N+](=O)[O-])c1)C[C@H]3O[C@H]1CC(N)[C@H](O)[C@H](C)O1,MIC,,,TAC-R,,,6.3 µg/mL
CN[C@@H]1[C@H](O[C@H]2[C@H](O[C@H]3[C@H](O)[C@@H](O)[C@H](N=C(N)N)[C@@H](O)[C@@H]3N=C(N)N)O[C@@H](C)[C@]2(O)C=O)O[C@@H](CO)[C@H](O)[C@H]1O,MIC,broth dilution,,STR-resistant (ATCC 35820),,,>8 µg/mL
O=c1[nH]c2ccc(Cl)cc2c(O)c1N=Nc1ccccc1[N+](=O)[O-],MIC,resazurin,,H37Rv,,,<6.25 µg/mL
COc1cc(/C=N/NC(=O)c2ccc(F)cc2)ccc1O,inhibition,,,H37Rv,,6.25 µg/mL,3%
NCC(=O)N/N=C/c1ccc([N+](=O)[O-])o1,MIC,,,CS-R,,,12.5 µg/mL
CC[C@H]1OC(=O)[C@H](C)[C@@H](O[C@H]2C[C@@](C)(OC)[C@@H](O)[C@H](C)O2)[C@H](C)[C@@H](O[C@@H]2O[C@H](C)C[C@H](N(C)C)[C@H]2O)[C@](C)(O)C[C@@H](C)CN(C)[C@H](C)[C@@H](O)[C@]1(C)O,MIC,,,ATCC 35826,,,>8 µg/mL
CC(=O)NN1C2=CCCCC2=NC(C#N)=C1N,MIC bound,BACTEC,,H37Rv,,,>12.5 µg/mL
N[C@@H]1CONC1=O,EC90,resazurin / fluorescence,,H37Rv,,,28.01 µM
COc1ccc(-c2cc(C(F)(F)F)nc3c(C(F)(F)F)cccc23)cc1,MIC,,,,,,>128 µM
CCOC(=O)c1ccc2c(c1)nc(-c1ccc(Br)cc1)n2CCN1CCCOC1,EC90,resazurin / fluorescence,,H37Rv,,,>100 µM
CC1CN(c2cc3c(cc2F)c(=O)c(C(=O)O)cn3-c2ccc(F)cc2F)CCN1,MBC,,,ATCC 35822,,,4 µg/mL
NNC(=O)c1ccncc1,MIC90,,,22 strains (rifampin- isoniazid-resistant),,,>100 µg/mL
O=C(NCc1ccccc1)N1CCN(c2ccccc2)C1=O,inhibition,BACTEC,,H37Rv,,12.5 µg/mL,2%
COc1ccc2oc(=O)n(-c3ccc(Cl)cc3)c(=S)c2c1,MIC,,21 d,My 331/88,,,16 µM
CCOC(=O)c1ccc2nc(-c3ccc(C(F)(F)F)cc3)[nH]c2c1,EC90,resazurin / fluorescence,,H37Rv,,,>100 µM
N[C@@H]1CN(c2c(F)cc3c(=O)c(C(=O)O)cn([C@@H]4C[C@@H]4F)c3c2Cl)CC12CC2,MIC90,,,27 strains (levofloxacin-susceptible),,,0.1 µg/mL
O=C(N/N=C/c1ccc([N+](=O)[O-])cc1[N+](=O)[O-])c1ccc(F)cc1,MIC,,,H37Rv,,,>6.25 µg/mL
FC(F)(F)c1cc(NCc2ccccn2)c2cccc(C(F)(F)F)c2n1,MIC,,,,,,30 µM
CCOC(=O)c1ccc2nc(-c3ccc(Cl)cc3)[nH]c2c1,EC50,resazurin / fluorescence,,H37Rv,,,>100 µM
CC1COc2c(N3CCN(C)CC3)c(F)cc3c(=O)c(C(=O)O)cn1c23,MIC,,,H37Rv,,,0.75 µg/mL
O=c1[nH]c2ccc(Cl)cc2c(O)c1N=Nc1ccc(Cl)cc1,MIC,resazurin,,H37Rv,,,<6.25 µg/mL
COc1cc2c(oc(=O)c3cc(C)cc(OC)c32)c2c(C3OC(C)C(O)C(C)(O)C3O)ccc(O)c12,MIC,BACTEC,,H37Rv,,,6.25 µg/mL
O=c1oc2ccc(Br)cc2c(=S)n1-c1ccc(F)cc1,MIC,,14 d,My 331/88,,,0.5 µM
NC(=O)c1csc([C@@H]2O[C@H](COP(=O)(O)CP(=O)(O)OC[C@H]3O[C@@H](n4cnc5c(N)ncnc54)[C@H](O)[C@@H]3O)[C@@H](O)[C@H]2O)n1,inhibition,BACTEC,,H37Rv,,12.5 µg/mL,-11%
Oc1ccccc1-c1csc(Nc2ccccc2C(F)(F)F)n1,MIC,visual reading,,H37Rv,,,>20 µM
FC(F)(F)c1cc(-n2ccnc2)c2cccc(C(F)(F)F)c2n1,MIC,,,,,,118 µM
OC(c1cc(-c2ccccc2)nc2ccc(Cl)cc12)C1CCCCN1,inhibition,resazurin,,H37Rv,,6.25 µg/mL,98%
NC1CCN(c2c(F)cc3c(=O)c(C(=O)O)cn(C4CC4)c3c2Cl)C1,MIC,,,ATCC35838,,,0.06 µg/mL
Cc1cc(C)cc(N=Nc2c(O)c3c(ccc4ccccc43)oc2=O)c1,inhibition,resazurin,,H37Rv,,6.25 µg/mL,58%
CC[C@H]1OC(=O)[C@H](C)[C@@H](O[C@H]2C[C@@](C)(OC)[C@@H](O)[C@H](C)O2)[C@H](C)[C@@H](O[C@@H]2O[C@H](C)C[C@H](N(C)C)[C@H]2O)[C@](C)(OC)C[C@@H](C)C(=O)[C@H](C)[C@@H](O)[C@]1(C)O,MIC90,,,18 strains (levofloxacin-resistant),,,25 µg/mL
O=C(N/N=C/c1ccc2c(c1)OCO2)c1ccncc1,inhibition,resazurin,,H37Rv,,6.25 µg/mL,96%
CO[C@H]1/C=C/O[C@@]2(C)Oc3c(C)c(O)c4c(O)c(c(/C=N/N5CCN(C6CCCC6)CC5)c(O)c4c3C2=O)NC(=O)/C(C)=C\C=C\[C@H](C)[C@H](O)[C@@H](C)[C@@H](O)[C@@H](C)[C@H](O)[C@@H]1C,MIC,,,Isolate 900240 drug-susceptible,,,0.25 µg/mL
Cl.Cl.O=C(CCCCC(=O)Nc1ccc(C2=NCCN2)cc1)Nc1ccc(C2=NCCN2)cc1,MIC,BACTEC,,H37Rv,,,>128 µg/mL
O=c1[nH]c2c([N+](=O)[O-])cccc2c(O)c1N=Nc1ccc(Cl)cc1,inhibition,resazurin,,H37Rv,,6.25 µg/mL,61%
CO[C@@H]1[C@H](O)[C@@H](C)O[C@@H](OC[C@H]2[C@@H]3O[C@H]3/C=C/C(=O)[C@@](C)(O)C[C@H](C)[C@@H](O[C@@H]3O[C@H](C)C[C@H](OC)[C@H]3O)[C@@H](C)/C=C/C(=O)O[C@@H]2C)[C@@H]1OC,MIC,BACTEC,,H37Rv,,,≥12.8 µg/mL
NNC(=O)c1ccncc1,MIC,,,Isolate UT1885 (katG S315T mutation),,,12 µg/mL
CC[C@H]1OC(=O)[C@H](C)[C@@H](O[C@H]2C[C@@](C)(OC)[C@@H](O)[C@H](C)O2)[C@H](C)[C@@H](O[C@@H]2O[C@H](C)C[C@H](N(C)C)[C@H]2O)[C@](C)(O)C[C@@H](C)C(=O)[C@H](C)[C@@H](O)[C@]1(C)O,MBC90,,,DRUG-SUS,,,>8 µg/mL
N[C@@H]1CN(c2c(F)cc3c(=O)c(C(=O)O)cn([C@@H]4C[C@@H]4F)c3c2Cl)CC12CC2,MIC,resazurin,,Clinical strain,Gyrase Asp94His,,0.25–0.5 µg/mL
COc1cc(C(=O)NNC(C)C)cc(OC)c1OC,inhibition,BACTEC,,H37Rv,,12.5 µg/mL,0%
Fc1ccc2oc(=S)n(-c3ccc(Cl)c(Cl)c3)c(=S)c2c1,MIC,,14 d,My 331/88,,,1 µM
CC(=O)NC[C@H]1CN(c2ccc(N3CCOCC3)c(F)c2)C(=O)O1,EC50,,,H37Rv (ATCC 27294),,,0.69 µg/mL
CCCCN(CCCC)CCNc1ccc(C)c2sc3c(Cl)cccc3c(=O)c12,MIC,BACTEC,,H37Rv,,,1.6 µg/mL
O=C(N/N=C/c1ccccc1F)c1ccc(F)cc1,EC50,,,H37Rv,,,>6.25 µg/mL
CCOC(=O)c1ccc2c(c1)nc(-c1ccc(OC)cc1)n2CCN1CCCOC1,EC90,resazurin / fluorescence,,H37Rv,,,>100 µM
C=CS(=O)(=O)c1ccc(Nc2cc(S(=O)(=O)O)c(N)c3c2C(=O)c2ccccc2C3=O)cc1,inhibition,BACTEC,,H37Rv,,12.5 µg/mL,-8%
O=c1oc2ccc(F)cc2c(=S)n1-c1ccc(Cl)cc1,MIC,,21 d,My 331/88,,,1 µM
CCOC(=O)c1ccc2nc(-c3ccc(O)cc3O)[nH]c2c1,EC50,resazurin / fluorescence,,H37Rv,,,>100 µM
NNC(=O)c1ccncc1,MIC,resazurin,,Clinical isolate BRF 27,,,0.03 µg/mL
O=c1oc2ccc(Cl)cc2c(=S)n1-c1ccc(F)cc1,MIC,,14 d,My 331/88,,,2 µM
NCC[C@H](O)C(=O)N[C@@H]1C[C@H](N)[C@@H](O[C@H]2O[C@H](CN)[C@@H](O)[C@H](O)[C@H]2O)[C@H](O)[C@H]1O[C@H]1O[C@H](CO)[C@@H](O)[C@H](N)[C@H]1O,MIC,,,8S,,,2.5 µg/mL
O=C(N/N=C/c1ccc([N+](=O)[O-])s1)c1ccc([N+](=O)[O-])cc1,EC50,,,H37Rv,,,<6.25 µg/mL
Cc1ccc(NC(=S)C#N)cc1Cl,MIC bound,BACTEC,,H37Rv,,,>12.5 µg/mL
c1ccc(-c2csc(NC3CCCCC3)n2)nc1,MIC,visual reading,,H37Rv,,,20 µM
CCOC(=O)c1ccc2c(c1)nc(-c1cccc(-c3ccc(F)cc3)c1)n2CCN1CCCC1=O,EC50,resazurin / fluorescence,,H37Rv,,,61.45 µM
O=c1[nH]c2c([N+](=O)[O-])cccc2c(O)c1N=Nc1cccc(Cl)c1,MIC,resazurin,,H37Rv,,,<6.25 µg/mL
CCCCC(=O)N/N=C/c1cccc(OC)c1OC,MIC,BACTEC,,H37Rv,,,≥12.5 µg/mL
Cc1ccc(N=Nc2c(O)c3c(Cl)ccc(Cl)c3[nH]c2=O)cc1,MIC,resazurin,,H37Rv,,,>6.25 µg/mL
O=C(N/N=C/c1ccc([N+](=O)[O-])o1)c1ccc(F)cc1,MIC,,,H37Rv,,,>6.25 µg/mL

Again, the opening 8 rows:

compound	measure	read by	conditions	strain	changes	tested at	value
NC(=O)n1ncc(Cl)c(Cl)c1=O	inhibition	BACTEC		H37Rv		12.5 µg/mL	-9%
Cc1cccc(N=Nc2c(O)c3c(ccc4ccccc43)oc2=O)c1C	inhibition	resazurin		H37Rv		6.25 µg/mL	64%
O=C([C@@H](O)CO)N1CC=C(c2c(F)cc(N3C[C@H](COc4ccon4)OC3=O)cc2F)CC1	MIC			AZD5847-resistant 4.6	T460C Cys154Arg		16 µg/mL
c1ccc(-c2csc(Nc3ccc4ccccc4c3)n2)nc1	MIC	visual reading		H37Rv			2.9 µM
O=C1c2ccccc2C(O)(C(=O)O)C1(O)CC=C(Cl)Cl	MIC	BACTEC		H37Rv			≥12.5 µg/mL
CC(=O)NC[C@H]1CN(c2ccc(N3CCOCC3)c(F)c2)C(=O)O1	MIC			10S			0.25 µg/mL
Cc1ccc2oc(=O)n(-c3ccc(F)cc3)c(=S)c2c1	MIC		14 d	My 331/88			4 µM
COC(=O)[C@]1(C)CCC[C@]2(C)c3ccc(C(C)C)cc3C(=O)C[C@@H]12	inhibition	BACTEC		H37Rv		12.5 µg/mL	26%